Positions that govern dimerization of the HIV-1 5' RNA

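Mutant RNA libraries with 1G, 2G or 3G starts, with or without cap, were folded at 37 °C for 30 min. Monomer and dimer bands were cut from native gels after folding in high salt (300 mM KCl, 5 mM MgCl2) or low salt (40 mM KCl, 0.1 mM MgCl2). Kdimer compares mutation frequencies in monomer and dimer, corrected for sequencing errors.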

The 5' region of HIV-1 NL4-3 RNA (positions 1-437):
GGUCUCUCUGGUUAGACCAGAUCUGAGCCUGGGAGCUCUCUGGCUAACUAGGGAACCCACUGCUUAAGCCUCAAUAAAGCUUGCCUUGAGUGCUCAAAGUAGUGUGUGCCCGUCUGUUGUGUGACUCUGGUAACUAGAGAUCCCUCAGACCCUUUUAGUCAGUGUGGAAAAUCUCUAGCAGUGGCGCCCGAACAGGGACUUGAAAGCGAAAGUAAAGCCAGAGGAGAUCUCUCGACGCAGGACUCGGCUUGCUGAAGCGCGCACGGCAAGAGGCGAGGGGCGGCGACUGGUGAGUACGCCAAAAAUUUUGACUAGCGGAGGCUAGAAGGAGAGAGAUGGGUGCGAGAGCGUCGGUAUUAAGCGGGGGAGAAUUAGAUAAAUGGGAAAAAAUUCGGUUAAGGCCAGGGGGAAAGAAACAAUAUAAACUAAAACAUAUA

Scale: median log2 Kdimer over the changes at a position; positive = changes inhibit dimerization, negative = changes enhance it.
One numbering serves 1G, 2G and 3G.
A position is written with its base where known.
Bases beyond 437 are not listed in the source.

| position | domain | 3G uncapped high-salt | 3G capped high-salt |
|---|---|---|---|
| C267 | SL1 | 4.75 | 4.13 |
| A334 | AUG | 0.23 | 0.02 |
| U355 | none | 0.07 | 0.10 |
| 471 | none | 0.11 | 0.12 |
| G167 | PBS | 0.27 | -0.02 |
| C188 | PBS | 0.19 | 0.29 |
| G108 | U5 | -0.02 | -0.31 |
| G382 | none | 0.10 | -0.04 |
| A59 | PolyA | 0.25 | 0.05 |
| A424 | none | 0.13 | 0.02 |
| A347 | none | 0.51 | 0.53 |
| C262 | SL1 | 3.90 | 3.41 |
| A305 | none | -0.08 | -0.09 |
| A67 | PolyA | -0.02 | 0.00 |
| U200 | PBS | 0.06 | 0.10 |
| U49 | TAR | 0.09 | 0.09 |
| G226 | none | -0.40 | -0.44 |
| G413 | none | 0.01 | 0.13 |
| C287 | SL2 | -0.19 | -0.52 |
| G328 | none | -0.02 | 0.06 |
| A271 | SL1 | -0.17 | -0.27 |
| U313 | SL3 | 0.92 | 0.69 |
| A370 | none | 0.03 | 0.06 |
| G348 | none | -0.33 | -0.29 |
| C316 | SL3 | 0.07 | 0.06 |
| G116 | none | 0.40 | 0.27 |
| U128 | PAS | 0.29 | 0.27 |
| G25 | TAR | -0.06 | -0.33 |
| A376 | none | 0.01 | 0.02 |
| G329 | none | 0.28 | 0.22 |
| G292 | SL2 | -0.19 | -0.16 |
| G31 | TAR | 0.12 | 0.09 |
| U65 | PolyA | 0.34 | 0.28 |
| U182 | PBS | 0.07 | 0.29 |
| 497 | none | 0.02 | 0.02 |
| U153 | PBS | 0.00 | 0.00 |
| G320 | SL3 | -0.02 | -0.08 |
| U154 | PBS | -0.04 | 0.09 |
| A204 | PBS | -0.04 | 0.25 |
| 450 | none | 0.15 | 0.13 |
| A77 | PolyA | 0.02 | -0.09 |
| G237 | none | 0.60 | 1.18 |
| A214 | PBS | 0.06 | 0.11 |
| A136 | PBS | 0.16 | -0.09 |
| U351 | none | 0.09 | 0.16 |
| G405 | none | -0.15 | -0.05 |
| G129 | PAS | 0.39 | 0.06 |
| C160 | PBS | -0.20 | -0.30 |
| U126 | PAS | 0.28 | 0.29 |
| G384 | none | -0.15 | -0.38 |
| U391 | none | 0.12 | 0.03 |
| A425 | none | 0.21 | 0.13 |
| A385 | none | -0.05 | -0.03 |
| U253 | SL1 | 2.45 | 1.90 |
| U100 | PolyA | -0.04 | 0.06 |
| U117 | none | 0.00 | -0.30 |
| C38 | TAR | -0.35 | -0.35 |
| G375 | none | 0.01 | 0.13 |
| U422 | none | 0.00 | 0.00 |
| 506 | none | -0.04 | 0.05 |
| C207 | PBS | -0.14 | -0.67 |
| A269 | SL1 | 1.48 | 1.72 |
| G298 | SL2 | -0.39 | -0.57 |
| 442 | none | 0.13 | 0.05 |
| G234 | none | 0.44 | 1.11 |
| A192 | PBS | 0.03 | 0.03 |

The opening 6 entries, copied out:

For C267 (domain SL1) the result was 3G uncapped high-salt 4.75; 3G capped high-salt 4.13.
For A334 (domain AUG) the result was 3G uncapped high-salt 0.23; 3G capped high-salt 0.02.
For U355 the result was 3G uncapped high-salt 0.07; 3G capped high-salt 0.10.
For position 471 the result was 3G uncapped high-salt 0.11; 3G capped high-salt 0.12.
For G167 (domain PBS) the result was 3G uncapped high-salt 0.27; 3G capped high-salt -0.02.
For C188 (domain PBS) the result was 3G uncapped high-salt 0.19; 3G capped high-salt 0.29.

Data from the supplement of Ye et al. 2022, doi:10.1038/s41594-022-00746-2.